# In US5571892A (priority 1990, dated 1996):
# Where no end group is shown, it is not given here.
# Assay: general procedure: Fmoc solid-phase peptide synthesis; DMBHA resin; DIPCDI-HOBt
# Details: whole synthesis, based on the protecting group-protected peptide (A) resin, scale 0.2 mmole
substance,measurement,value
RWCYRKCYRGICYRKCR-NH2 (cysteine pairing not given here),isolated yield,27%
